# Reference: PMC8646600 (Advanced Science, 2021)
# Molecular target: T1, full-length SARS-CoV spike expressed on cells (SARS-CoV, strain , UniProt P59594)
# T1 construct: source: HEK293T, transiently transfected, on cells
# Assay: flow cytometry on cells; […] MFI in EGFP-positive cells
# Settings: one partner purified
binder,measurement,value
"S-B8 full-length human IgG4e1(S228P) antibody (antibody, V domains shown, also called S-B8 IgG; source: HEK293F, secreted; clarified culture supernatant, and purified (Mabselect)) VH: QVQLVQSGGGLIQPGGSLRLSCAASGFTVSLSHMNWVRQAPGKGLEWVSITYGDGNSDYADSVKGRFTISRDNSKNTLYLQMNSLRAEDTAVYYCAREYYYGMDVWGQGTTVTVSS VL: DIVMTQSPDSLAVSLGERATINCKSSQSVLYSSNNKNYLAWYQQKPGQPPKLLIYWASTRESGVPDRFSGSGSGTDFTLTISSLQAEDVAVYYCQQYYSLPLTFGGGTKLEIK",binding result,no binding
